The test system of this experiment is pneumococcus. The experiment is described as follows: Bacterial shock model (intraperitoneal pneumococcus culture, minimal lethal dose). The settings on record: with additional treatment during shock to maintain blood circulation, fig. 6.

deuterium oxide [heavy water]: the “animals that overcame the shock and survived” value is “half of them could overcome the shock and survived”.
